Pooled drug test results. Numbers come from NIAID ChemDB, via PubChem.

Common to all: host cell toxicity; cell line: MT-4; endpoint: CC50

An empty or dashed field is not shown. Conditions beyond the fields shown may differ between rows. CCn: concentration that lowers growth or viability of the cells by n%.

{"smiles": "Cc1cc(C#Cc2ccccc2N)cc(C)c1Oc1ccnc(Nc2ccc(C#N)cc2)n1", "method": "MTT", "result": "8.883 µM"}
{"smiles": "CC(=O)c1ccc(NC(=O)CSc2nncnc2-c2cccc3ccccc23)c(Br)c1", "method": "MTT", "result": "133 µM"}
{"smiles": "O=C1/C(=C/c2ccc([N+](=O)[O-])c(O)c2)CN(Cc2ccccc2)C/C1=C\\c1ccc([N+](=O)[O-])c(O)c1", "method": "MTT", "result": "3.5 µM"}
{"smiles": "Nc1cc(S(=O)(=O)c2ccccc2)nc(Cl)n1", "result": "10 µM"}
{"smiles": "CCN1C(=O)c2cccn2-c2ccc(Cl)cc2S1(=O)=O", "result": "≥200 µM"}
{"smiles": "Nc1nccc2c1ncn2[C@@H]1C[C@H](CO)[C@@H](O)[C@H]1O", "method": "trypan blue", "result": "1.1 µg/mL"}
{"smiles": "CCC(C)Oc1nc(Sc2cccc(C)c2)cc(=O)[nH]1", "result": ">200 µM"}
{"smiles": "CCOC(=O)CC1C/C(=C\\c2ccc(O)c(O)c2)C(=O)/C(=C/c2ccc(O)c(O)c2)C1", "method": "MTT", "result": "5 µM"}
{"smiles": "CCC(Cc1ccccc1)c1cc(O)c(C(c2cccc(NS(=O)(=O)c3cccc4cccnc34)c2)C2CC2)c(=O)o1", "result": ">30 µM"}
{"smiles": "CC1CCC(C(=O)N(c2cc(C#CC(C)(C)C)sc2C(=O)O)C2CCC(O)CC2)CC1", "method": "luminescence", "result": "23.1 µM"}
{"smiles": "O=C1c2cccn2-c2ccc(Cl)cc2S(=O)(=O)N1C1CC1", "result": ">200 µM"}
{"smiles": "CCNC(=O)[C@@H](NC(=O)Cc1ccccc1)[C@@H]1N[C@@H](C(=O)NCCNC(=O)[C@@H]2N[C@@H]([C@H](NC(=O)Cc3ccccc3)C(=O)NCC)SC2(C)C)C(C)(C)S1", "result": "≥100 µM"}
{"smiles": "CCOC(=O)c1cn(Cc2ccc([N+](=O)[O-])cc2)c(Sc2cc(Cl)cc(Cl)c2)c1C(C)C", "method": "MTT", "result": ">200 µM"}
{"smiles": "CC1(C)S[C@H]([C@H](NC(=O)Cc2ccccc2)C(=O)NCc2ccccc2)N[C@H]1C(=O)NCCCNC(=O)[C@@H]1N[C@@H]([C@H](NC(=O)Cc2ccccc2)C(=O)NCc2ccccc2)SC1(C)C", "result": "≥100 µM"}
{"smiles": "O=c1oc(C(CC2CC2)CC2CC2)cc(O)c1C(c1cccc(NS(=O)(=O)c2ccc(F)cc2)c1)C1CC1", "result": ">30 µM"}
{"smiles": "N#C/C=C1/c2cc(S)cc([N+](=O)[O-])c2-c2c1cc(S(=O)(=O)NCc1ccccc1)cc2[N+](=O)[O-]", "method": "MTT / absorbance", "result": ">100 µM"}
{"smiles": "CC(C)=CCN1C(C)C(=O)N(C)c2ccc(Cl)cc2S1(=O)=O", "result": "41 µM"}
{"smiles": "CC(C)=CCN1Cc2cc(Cl)cc3[nH]c(=S)n(c23)C[C@@H]1C", "result": "16 µg/mL"}
{"smiles": "C[C@]1(CO)O[C@@H](n2ccc(N)nc2=O)[C@@H](O)[C@@H]1O", "result": "1.2 µM"}
{"smiles": "O=C1/C(=C/c2ccc(O)c([N+](=O)[O-])c2)CN(Cc2ccccc2)C/C1=C\\c1ccc(O)c([N+](=O)[O-])c1", "method": "MTT", "result": "19 µM"}
{"smiles": "Cc1c(Cc2ccccc2)nc(OC2CCCCC2)[nH]c1=O", "result": "375 µM"}
{"smiles": "C=C[C@@]1(CO)CO[C@H](n2cc(C)c(=O)[nH]c2=O)C1", "result": ">100 µg/mL"}
{"smiles": "O=C1/C(=C/c2ccc([N+](=O)[O-])c(O)c2)CNC/C1=C\\c1ccc([N+](=O)[O-])c(O)c1", "method": "MTT", "result": "1.2 µM"}
{"smiles": "O=c1oc(C(CC2CC2)CC2CC2)cc(O)c1C(c1cccc(NS(=O)(=O)c2ccccc2)c1)C1CC1", "result": ">30 µM"}
{"smiles": "O=C1c2cccn2-c2ccc(Cl)cc2S(=O)(=O)N1c1ccc(Cl)cc1", "result": "30 µM"}
{"smiles": "Cc1c([C@H](C)c2c(F)cccc2F)nc(SC2CCCC2)[nH]c1=O", "result": ">200 µM"}
{"smiles": "CC1(C)S[C@H]([C@H](NC(=O)Cc2ccccc2)C(=O)NCc2ccccc2)N[C@H]1C(=O)NCCNC(=O)[C@@H]1N[C@@H]([C@H](NC(=O)Cc2ccccc2)C(=O)NCc2ccccc2)SC1(C)C", "result": "≥100 µM"}
{"smiles": "CCCOc1nc(Cc2ccccc2)cc(=O)[nH]1", "result": "515 µM"}
{"smiles": "CC(C)=CCN1Cc2cccc3[nH]c(=S)n(c23)C[C@@H]1C", "result": "325 µg/mL"}
{"smiles": "CC(C)C(N)C(=O)O[C@@H]1Cc2ccccc2[C@@H]1NC(=O)[C@H](Cc1ccccc1)C[C@H](O)CN1CCN(Cc2cccnc2)C[C@H]1C(=O)NC(C)(C)C", "result": ">0.1 µM"}
{"smiles": "[N-]=[N+]=N[C@H]1C[C@H](n2cnc3cncnc32)O[C@@H]1CO", "result": ">1000 µM"}
{"smiles": "C=C[C@@]1(CO)CO[C@H](n2ccc(=O)[nH]c2=O)C1", "result": ">100 µg/mL"}
{"smiles": "CCC(C)Oc1cc(N)nc(Sc2ccc(F)cc2)n1", "result": "67.5 µM"}
{"smiles": "Nc1ncnc2c1ncn2[C@H]1C[C@H](N)[C@@H](CO)O1", "result": "21.8 µM"}
{"smiles": "Cc1ccc(/C=C/c2cc(C)c(Oc3ccnc(Nc4ccc(C#N)cc4)n3)c(C)c2)cc1", "method": "MTT", "result": "8.51 µM"}
{"smiles": "Nc1nccc2c1ncn2[C@@H]1C=C(CO)[C@@H](O)[C@H]1O", "method": "trypan blue", "result": "0.025 µg/mL"}
{"smiles": "O=C1/C(=C/c2cc(O)c(O)c(O)c2)COC/C1=C\\c1cc(O)c(O)c(O)c1", "method": "MTT", "result": "115 µM"}
{"smiles": "Cc1cc(C#Cc2ccc(C(F)(F)F)cc2)cc(C)c1Oc1ccnc(Nc2ccc(C#N)cc2)n1", "method": "MTT", "result": "7.353 µM"}
{"smiles": "[N-]=[N+]=N[C@H]1C[C@H](n2cnc3c(=O)[nH]cnc32)O[C@@H]1CO", "result": "17.8 µM"}
{"smiles": "COCCOCCOCCOCCOCCOCCOCCOC(=O)CCC(=O)O[C@H](CN1C[C@H]2CCCC[C@H]2C[C@H]1C(=O)NC(C)(C)C)[C@H](Cc1ccccc1)NC(=O)[C@H](CC(N)=O)NC(=O)c1ccc2ccccc2n1", "result": ">0.01 µM"}
{"smiles": "CC1(C)S[C@H]([C@H](NC(=O)Cc2ccccc2)C(=O)NCc2ccccc2)N[C@H]1C(=O)NCC(O)CNC(=O)[C@@H]1N[C@@H]([C@H](NC(=O)Cc2ccccc2)C(=O)NCc2ccccc2)SC1(C)C", "result": "≥100 µM"}
{"smiles": "O=c1cc(Cc2ccccc2)nc(OC2CCCCC2)[nH]1", "result": "157 µM"}
{"smiles": "CC(C)=CCN1C(C)C(=O)N(C(C)C)c2ccc(Cl)cc2S1(=O)=O", "result": "56 µM"}
{"smiles": "CC(C)Nc1cccnc1N1CCN(C(=O)c2cc3cc(NS(C)(=O)=O)ccc3[nH]2)CC1", "method": "MTT", "result": "127 µM"}
{"smiles": "CC(C)C(N)C(=O)O[C@H](CN1C[C@H]2CCCC[C@H]2C[C@H]1C(=O)NC(C)(C)C)[C@H](Cc1ccccc1)NC(=O)[C@H](CC(N)=O)NC(=O)c1ccc2ccccc2n1", "result": ">0.01 µM"}
{"smiles": "Nc1nc2c(ncn2[C@H]2C[C@H](N)[C@@H](CO)O2)c(=O)[nH]1", "result": "200 µM"}
{"smiles": "Cc1cc(C#Cc2cccc(N)c2)cc(C)c1Oc1ccnc(NC2CCN(Cc3ccc(C(N)=O)cc3)CC2)n1", "method": "MTT", "result": "0.198 µM"}
{"smiles": "CCC(C)Oc1nc(Sc2cc(C)cc(C)c2)cc(=O)[nH]1", "result": "115 µM"}
{"smiles": "Cc1cn([C@H]2C[C@H](N=[N+]=[N-])[C@@H](CO)O2)c(=O)[nH]c1=O", "result": "10.8 µM"}
{"smiles": "O=C(CSc1nncnc1-c1ccccc1Cl)c1ccc(Cl)c(Cl)c1", "method": "MTT", "result": "33 µM"}
{"smiles": "Cc1c(Cc2ccccc2)nc(OC2CCCC2)[nH]c1=O", "result": ">1000 µM"}
{"smiles": "O=C(CSc1nncnc1-c1cccc2ccccc12)N1CCc2ccccc2C1", "method": "MTT", "result": "13 µM"}
{"smiles": "CC(C)c1nc(CN(C)C(=O)N[C@H](C(=O)N[C@@H](Cc2ccccc2)C[C@H](O)[C@H](Cc2ccccc2)NC(=O)OCc2cncs2)C(C)C)cs1", "result": "441.6 µg/mL"}
{"smiles": "CCCCCCCC/C=C\\CCCCCCCC(=O)O[C@@H]1Cc2ccccc2[C@@H]1NC(=O)[C@H](Cc1ccccc1)C[C@H](O)CN1CCN(Cc2cccnc2)C[C@H]1C(=O)NC(C)(C)C", "result": ">0.01 µM"}
{"smiles": "Cc1cn([C@H]2C[C@H](N=[N+]=[N-])[C@@H](CO)O2)c(=O)[nH]c1=O", "method": "trypan blue", "result": "37.4 µM"}
{"smiles": "Cc1cc(C#CC2CC2)cc(C)c1Oc1ccnc(Nc2ccc(C#N)cc2)n1", "method": "MTT", "result": "12.8 µM"}
{"smiles": "Cc1cn([C@H]2C=C[C@@H](CO)O2)c(=O)[nH]c1=O", "result": "2.9 µM"}
{"smiles": "CC(C)=CCN1[C@@H](C)Cn2c(=S)[nH]c3cccc(c32)[C@@H]1C", "result": "23 µg/mL"}
{"smiles": "Cc1ccnc2c1NC(=O)c1cccnc1N2C1CC1", "method": "MTT", "result": ">15.02 µM"}
{"smiles": "CCCS(=O)(=O)Nc1cccc(C(c2c(O)cc(C(CC)Cc3ccccc3)oc2=O)C2CC2)c1", "result": ">30 µM"}
{"smiles": "CCC(=CCN1Cc2cc(Cl)cc3[nH]c(=S)n(c23)C[C@@H]1C)CC", "result": "5.2 µg/mL"}
{"smiles": "CC1=CC[C@H](C(=O)N(c2cc(C#CC(C)(C)C)sc2C(=O)O)C2CCC(O)(CO[C@H]3CCOC3)CC2)CC1", "method": "luminescence", "result": "42.8 µM"}
{"smiles": "Nc1ccn([C@H]2CC[C@@H](CO)O2)c(=O)n1", "result": "634 µM"}
{"smiles": "Cc1ccccc1Sc1c(C(C)C)c(COC(N)=O)cn1Cc1ccncc1", "method": "MTT", "result": ">200 µM"}
{"smiles": "CCC(CC)c1cc(O)c(C(c2cccc(NS(=O)(=O)c3cn(C)cn3)c2)C2CC2)c(=O)o1", "result": ">30 µM"}
{"smiles": "CC(C)C(N)C(=O)O[C@@H](C[C@@H](Cc1ccccc1)C(=O)N[C@H]1c2ccccc2C[C@H]1O)CN1CCN(Cc2cccnc2)C[C@H]1C(=O)NC(C)(C)C", "result": ">0.1 µM"}
{"smiles": "Cc1ccc(Sc2c(C(C)C)c(CO)cn2Cc2ccncc2)cc1", "method": "MTT", "result": ">200 µM"}
{"smiles": "CCCCCCCCCCCCCC(=O)O[C@@H]1Cc2ccccc2[C@@H]1NC(=O)[C@H](Cc1ccccc1)C[C@H](O)CN1CCN(Cc2cccnc2)C[C@H]1C(=O)NC(C)(C)C", "result": ">0.01 µM"}
{"smiles": "CC(C)c1c(CO)cn(Cc2ccccn2)c1Sc1cc(Cl)cc(Cl)c1", "method": "MTT", "result": "120 µM"}
{"smiles": "Cc1cc(C#N)cc(C)c1Oc1nc(Nc2ccc(C#N)cc2)nc(N)c1Br", "method": "resazurin", "result": ">33 µM"}
{"smiles": "Cc1ccc(NC(=O)CSc2nncnc2-c2cccc3ccccc23)c(Br)c1", "method": "MTT", "result": "166 µM"}
{"smiles": "CCC(C)Oc1cc(=O)[nH]c(Sc2ccccc2OC)n1", "result": "168 µM"}
{"smiles": "CCC(Cc1ccccc1)c1cc(O)c(C(c2cccc(NS(=O)(=O)c3ccc(Cl)cc3)c2)C2CC2)c(=O)o1", "result": ">30 µM"}
{"smiles": "CN1C/C(=C\\c2cc(O)c(O)c(O)c2)C(=O)/C(=C/c2cc(O)c(O)c(O)c2)C1", "method": "MTT", "result": "46 µM"}

Repeating the first 8 entries:

smiles,method,result
Cc1cc(C#Cc2ccccc2N)cc(C)c1Oc1ccnc(Nc2ccc(C#N)cc2)n1,MTT,8.883 µM
CC(=O)c1ccc(NC(=O)CSc2nncnc2-c2cccc3ccccc23)c(Br)c1,MTT,133 µM
O=C1/C(=C/c2ccc([N+](=O)[O-])c(O)c2)CN(Cc2ccccc2)C/C1=C\c1ccc([N+](=O)[O-])c(O)c1,MTT,3.5 µM
Nc1cc(S(=O)(=O)c2ccccc2)nc(Cl)n1,-,10 µM
CCN1C(=O)c2cccn2-c2ccc(Cl)cc2S1(=O)=O,-,≥200 µM
Nc1nccc2c1ncn2[C@@H]1C[C@H](CO)[C@@H](O)[C@H]1O,trypan blue,1.1 µg/mL
CCC(C)Oc1nc(Sc2cccc(C)c2)cc(=O)[nH]1,-,>200 µM
CCOC(=O)CC1C/C(=C\c2ccc(O)c(O)c2)C(=O)/C(=C/c2ccc(O)c(O)c2)C1,MTT,5 µM